Compound potency records, mixed from different reports. Data source: NIAID ChemDB in PubChem.

Shared fields: growth or infection tests; species: HIV-1

An empty or dashed field is not shown.

SMILES	conditions	mutations	read-out	strain	method	cell line	result
CC1CCN(CCCN2c3ccccc3NC(c3ccccc3)c3cccn32)CC1			EC50	IIIB	cytopathic effect / MTT	MT-4	>47 µM
C=C1[C@H](CO)[C@@H](O)C[C@@H]1n1cnc2c(=O)[nH]c(N)nc21			EC50	IIIB	MTT	MT-4	0.0022 µg/mL
NCCCN1CCCN(CCCN)CCN(CCCN)CCCN(CCCN)CC1			EC50	LAV	syncytia	MT-4	>50 µM
Cc1cc(O)cc(C)c1CNC(=O)[C@H](Cc1ccccc1)C[C@H](O)CN1CCN(S(=O)(=O)c2ccc3c(c2)CCN3c2ncccn2)C[C@H]1C(=O)NC(C)(C)C			EC50	IIIB	p24	MT-4	<0.031 µM
Nc1ccn([C@H]2CS[C@@H](CO)S2)c(=O)n1			EC50			MT-4	9.3 µg/mL
Cc1ccnc2c1NC(=O)c1cccnc1N2C1CC1		RT-L74V	EC50			MT-4	<0.1 µM
Cc1ccncc1-c1ccc(C[C@H](C[C@H](O)CN2CCN(Cc3ncc(-c4ccc(Cl)cc4)o3)C[C@H]2C(=O)NCC(F)(F)F)C(=O)N[C@H]2c3ccccc3OC[C@H]2O)o1			EC95	NL4-3	p24	MT-4	<0.0078 µM
CC(=O)O[C@H]1[C@H](C)[C@@H]2O[C@](NC(=O)OC(C)(C)C)([C@H]1C)[C@H]1O[C@@H]21			EC50	NL4-3	MTT	MT-4	>76 µM
c1cc(CN2CCCNCCNCCCNCC2)ccc1CN1CCCNCCNCCCNCC1			EC50	A031-2	β-galactosidase	MAGI + MAGI-CCR5	1.33 µM
CC(C)(c1ncc(-c2ccc(Cl)cc2)s1)N1CCN(C[C@@H](O)C[C@@H](Cc2cc3cnccc3s2)C(=O)N[C@H]2c3ccccc3OC[C@H]2O)[C@H](C(=O)NCC(F)(F)F)C1			EC95	NL4-3	p24	MT-4	<0.0078 µM
NC(N)=NCCCNc1ccc2[nH]ccc2c1.O=S(O)O			EC50	IIIB	MTT	MT-4	>38.03 µM
CC(=O)O[C@@H]1[C@H](OC(=O)CC(C)C)c2c(ccc3ccc(=O)oc23)OC1(C)C	6 d		EC50		p24	Monocytes	<20 µg/mL
CN1C(=O)c2cccn2S(=O)(=O)c2ccc(Cl)cc21			EC50	IIIB	cytopathic effect / MTT	MT-4	20 µM
C[C@@H]1[C@@H]2O[C@]3(NC(=O)OC(C)(C)C)[C@@H](C)[C@H]1O[C@H]2[C@@H]3O			EC50	NL4-3	MTT	MT-4	>88 µM
NCCCCCCN1CCCN(CCCCCCN)CCN(CCCCCCN)CCCN(CCCCCCN)CC1			EC50	LAV	syncytia	MT-4	>50 µM
O=C1c2cccn2S(=O)(=O)c2ccccc2N1CC1CC1			EC50	IIIB	cytopathic effect / MTT	MT-4	32 µM
Nc1ccn([C@@H]2O[C@H](CO)C[C@@H]2F)c(=O)n1			EC50	IIIB	antigen	H9	~1 µM
Cc1cn([C@H]2C[C@@H](N=[N+]=[N-])[C@@H](CO)O2)c(=O)[nH]c1=O			EC50	IIIB	MTT	MT-4	0.0065 µg/mL
Cc1ncc(-c2ccc(F)c(F)c2)c(N2CCC(C)(C)CC2)c1[C@H](OC(C)(C)C)C(=O)O			EC50	NL4-3	luciferase	MT-2	0.007 µM
O=C(NCCCCCCN1CCCN(CCCCCCNC(=O)OCc2ccccc2)CCN(CCCCCCNC(=O)OCc2ccccc2)CCCN(CCCCCCNC(=O)OCc2ccccc2)CC1)OCc1ccccc1			EC50	LAV	syncytia	MT-4	>1 µM
Nc1ccn([C@H]2CC[C@@H](CO)O2)c(=O)n1			EC90	JR-CSF	p24	PBMC	0.153 µM
O=C1Nc2ccccc2Cn2cccc21			EC50	IIIB	cytopathic effect / MTT	MT-4	>300 µM
C[C@H]1[C@@H]2O[C@]3(NC(=O)OC(C)(C)C)[C@@H](C)[C@H]1O[C@H]2[C@@H]3O			EC50	NL4-3	MTT	MT-4	>88 µM
Nc1nc(=O)n([C@@H]2CS[C@H](CO)O2)cc1F			EC50			MT-4	0.14 µg/mL
Cc1cn([C@H]2C[C@H](N=[N+]=[N-])[C@@H](CO)O2)c(=O)[nH]c1=O			EC50	IIIB	cytopathic effect / MTT	MT-4	0.01 µM
CC(C)(c1ncc(-c2ccc(Cl)cc2)o1)N1CCN(C[C@@H](O)C[C@@H](Cc2cc3cnccc3s2)C(=O)N[C@H]2c3ccccc3OC[C@H]2O)[C@H](C(=O)NCC(F)(F)F)C1		PR-M46I L63P V82T I84V	EC95	4X (PR M46I L63P V82T I84V)	p24	MT-4	<0.0078 µM
CC(C)CCCC(C)(C)c1ccc(O)cc1O			EC50		p24 / ELISA / antigen	PBMC	14.8 µM
CN=C(N)NCCNc1ccc2[nH]ccc2c1			EC50	IIIB	MTT	MT-4	>277 µM
CC(C)Nc1cccnc1N1CCN(C(=O)c2cc3cc(NS(C)(=O)=O)ccc3[nH]2)CC1		Resistant strain (K103N + Y181C)	EC50	IIIB	MTT	MT-4	>36 µM
N#Cc1ccc(Nc2nc(Oc3ccc(-c4ccc(C#N)cc4)cc3[N+](=O)[O-])c3sccc3n2)cc1		Y181C	EC50	IIIB	MTT	MT-2	0.0551 µM
NCCCCN1CCCN(CCCCN)CCCN(CCCCN)CCN(CCCCN)CCC1			EC50	LAV	syncytia	MT-4	>10 µM
CC(C)(c1ncc(-c2ccc(Cl)cc2)o1)N1CCN(C[C@@H](O)C[C@@H](Cc2cc3ccncc3s2)C(=O)N[C@H]2c3ccccc3OC[C@H]2O)[C@H](C(=O)NCC(F)(F)F)C1			EC95	NL4-3	p24	MT-4	<0.0078 µM
O=C(CCC(=O)N1CCN(CCNC(=S)Nc2ccc(Br)cn2)CC1)NCC(=O)OC[C@@H]1C=C[C@H](n2ccc(=O)[nH]c2=O)O1			EC50	LAI	RT activity	CEM + CEM-SS	6.9 µM
Cc1cc(-c2ccc(C#N)cc2)cc(C)c1Oc1nc(Nc2ccc(C#N)cc2)nc2ccsc12		E138K	EC50	IIIB	MTT	MT-4	0.0423 µM
Nc1ccn([C@H]2CC[C@@H](CO)O2)c(=O)n1			EC50	IIIB	cytopathic effect / MTT	MT-2	0.27 µM
c1cc2cc(NCCCNC3=NCCN3)ccc2[nH]1			EC50	IIIB	MTT	MT-4	52.82 µM
Cc1cc(-c2cnc(CO)c([C@H](OC(C)(C)C)C(=O)O)c2N2CCC(C)(C)CC2)ncc1OCCc1ccc(F)cc1			EC50	NL4-3	luciferase	MT-2	0.009 µM
CC1(C)Oc2ccc3ccc(=O)oc3c2[C@@H](OC(=O)C23CCC(C)(C(=O)O2)C3(C)C)[C@H]1OC(=O)C12CCC(C)(C(=O)O1)C2(C)C	28 d		EC50		p24	Monocytes	~0.000016 µM
O=C(O)/C=C/c1ccc[c]([Sb](=[O])([OH])[OH])c1			EC90	NL4-3	β-galactosidase	MAGI	2.7 µM
NC(=NCCCCNc1ccc2[nH]ccc2c1)N[N+](=O)[O-]			EC50	IIIB	MTT	MT-4	>431 µM
CCOC(=O)C1Nc2ccccc2Sn2cccc21			EC50	IIIB	cytopathic effect / MTT	MT-4	>10 µM
S=C(NCCN1CCNCC1)Nc1ccc(Br)cn1			EC50	LAI	RT activity	CEM + CEM-SS	13 µM
Cc1cc(C#N)cc(C)c1Oc1ccc([N+](=O)[O-])c(NC2CCN(Cc3ccncc3)CC2)n1		Resistant strain (K103N + Y181C)	EC50	IIIB	MTT	MT-4	7.7 µM
Cc1ccc(Nc2nc(C)c([C@H](OC(C)(C)C)C(=O)O)c(N3CCC(C)(C)CC3)c2-c2ccc(OCCc3ccc(F)cc3)cc2)cn1			EC50	NL4-3	luciferase	MT-2	0.005 µM
COc1cc(O)cc(C(C)(C)CCCC(C)C)c1			EC50		p24 / ELISA / antigen	PBMC	39.9 µM
O=C(N[C@H]1c2ccccc2OC[C@H]1O)[C@H](Cc1cc2cnccc2s1)C[C@H](O)CN1CCN(Cc2ccc(-c3ccc(Cl)cc3)s2)C[C@H]1C(=O)NCC(F)(F)F		PR-M46I L63P V82T I84V	EC50	4X (PR M46I L63P V82T I84V)	p24	MT-4	<0.0156 µM
O=c1[nH]cnc2c1ncn2[C@H]1CC[C@@H](CO)O1			EC50	IIIB	cytopathic effect / MTT	MT-2	18 µM
CSc1nccc(-c2ccc(S(=O)(=O)N3CCN(C[C@@H](O)C[C@@H](Cc4ccccc4)C(=O)NCc4c(C)cc(O)cc4C)[C@H](C(=O)NC(C)(C)C)C3)s2)n1			EC50	IIIB	p24	MT-4	<0.063 µM
Cc1cn([C@H]2C=C[C@@H](COC(=O)CNC(=O)CCC(=O)N3CCN(CCNC(=S)Nc4ccc(Br)cn4)CC3)O2)c(=O)[nH]c1=O			EC50	IIIB	RT activity	MT-4	0.49 µM
CC1CCN(CCCN2c3ccccc3NCc3cccn32)CC1			EC50	IIIB	cytopathic effect / MTT	MT-4	>62 µM
Cc1ccncc1-c1ccc(C[C@H](C[C@H](O)CN2CCN(C(C)(C)c3ncc(-c4ccc(Cl)cc4)s3)C[C@H]2C(=O)NCC(F)(F)F)C(=O)N[C@H]2c3ccccc3OC[C@H]2O)o1		PR-M46I L63P V82T I84V	EC50	4X (PR M46I L63P V82T I84V)	p24	MT-4	<0.0313 µM
O=C(OC[C@H]1O[C@@H](OC(=O)c2cc(O)c(O)c(O)c2)[C@H](O)[C@@H](OC(=O)c2cc(O)c(O)c(O)c2)[C@@H]1O)c1cc(O)c(O)c(O)c1			EC50	IIIB	p24	MOLT-3	<33 µg/mL
C[C@H]1[C@H](O)[C@H](C)[C@@]2(NC(=O)OC(C)(C)C)O[C@@H]1[C@H]1O[C@H]12			EC50	NL4-3	MTT	MT-4	>440 µM
Nc1nc(NC2CC2)c2ncn([C@H]3C=C[C@@H](CO)O3)c2n1			EC50	IIIB	cytopathic effect / MTT	MT-2	8.6 µM
O=C(OCc1ccccc1)N(CCCCCN1CCCN(CCCCCN(Cc2ccccc2)C(=O)OCc2ccccc2)CCN(CCCCCN(Cc2ccccc2)C(=O)OCc2ccccc2)CCCN(CCCCCN(Cc2ccccc2)C(=O)OCc2ccccc2)CC1)Cc1ccccc1			EC50	LAV	syncytia	MT-4	10 µM
O=C1Nc2ccccc2Sn2cccc21			EC50	IIIB	cytopathic effect / MTT	MT-4	200 µM
N#Cc1ccc(Nc2nc(Oc3ccc(-c4ccc(C#N)cc4)c(F)c3)c3sccc3n2)cc1			EC50	IIIB	MTT	MT-4	0.1015 µM
COc1ccc(C(C)(C)CCCC(C)C)c(OC)c1O			EC50		p24 / ELISA / antigen	PBMC	15.8 µM
OC[C@@H]1SC[C@@H](n2cnc3c(Cl)ncnc32)S1			EC50			MT-4	>10 µg/mL

A second listing of 4 rows from above:

SMILES	conditions	mutations	read-out	strain	method	cell line	result
Cc1ccc(Nc2nc(C)c([C@H](OC(C)(C)C)C(=O)O)c(N3CCC(C)(C)CC3)c2-c2ccc(OCCc3ccc(F)cc3)cc2)cn1			EC50	NL4-3	luciferase	MT-2	0.005 µM
CN1C(=O)c2cccn2S(=O)(=O)c2ccc(Cl)cc21			EC50	IIIB	cytopathic effect / MTT	MT-4	20 µM
CCOC(=O)C1Nc2ccccc2Sn2cccc21			EC50	IIIB	cytopathic effect / MTT	MT-4	>10 µM
Cc1cn([C@H]2C[C@H](N=[N+]=[N-])[C@@H](CO)O2)c(=O)[nH]c1=O			EC50	IIIB	cytopathic effect / MTT	MT-4	0.01 µM

ECn: concentration that inhibits the pathogen or its effect by n%. Lines come from different laboratories, so protocols vary.